Results of unrelated studies side by side (data: NIAID ChemDB).

Common to all: tests in culture; agent: Plasmodium falciparum; measure: EC50

a–b is a range or a potency band. ECn is the concentration giving n% inhibition of infection, replication or growth. An empty or dashed field is not shown. Conditions beyond the fields shown may differ between rows.

SMILES | strain | changes | read by | value
C/C=C1/CC2CCC3=C(Cc4ccccc43)C2C[C@@H]1C1=CN2c3ccccc3C34CCN5C/C(=C/O)[C@H](C[C@H]53)[C@@H]([C@@H]1O)[C@H]24 | W2 |  |  | 0.615 µg/mL
Cc1cccc(C=C2SC(=O)N(CC(=O)N3CCN(c4ccccc4)CC3)C2=O)c1 | W2 | Chloroquine-resistant | fluorescence | >10 µM
CN1CCc2cc3c(cc2C(=O)Cc2ccc4c(c2C1)OCO4)OCO3 | K1CB1 |  |  | 1.38 µg/mL
C[C@@H]1CC[C@H]2[C@@H](C)C(=O)O[C@@H]3OC4(C)CC[C@@H]1[C@]32OO4 | D10 |  |  | 0.036 µM
Cc1cccc(OCCNC(=O)c2ccccc2)c1 | Dd2 |  |  | 24.3 µM
CCN(CC)CCCC(C)Nc1ccnc2cc(Cl)ccc12 | HB3 |  |  | 0.032 µg/mL
CC(C)c1ccc(C2OOC(c3ccc(CO)cc3)OO2)cc1 | D6 |  | LDH | 2.2 µM
OCCCCNc1nc(NCCNc2ccnc3cc(Cl)ccc23)nc(N2CCOCC2)n1 | W2 |  |  | 1.52 µM
CCN(CCO)CCCC(C)Nc1ccnc2cc(Cl)ccc12 | W2 |  |  | 0.49 µg/mL
O=C(CC1CCC2(CC1)OOC1(OO2)C2CC3CC(C2)CC1C3)N1CCOCC1 | 3D7 |  |  | 0.0052 µM
C[C@@H]1CC[C@H]2[C@@H](C)C(=O)O[C@@H]3OC4(C)CC[C@@H]1[C@]32OO4 | KAE609R-3 | KAE609-resistant pfatp4 D1247Y | SYBR Green / fluorescence | 0.0103 µM
OCCCCNc1nc(NCCCCNc2ccnc3cc(Cl)ccc23)nc(N2CCCCC2)n1 | D6 |  |  | 0.1 µM
C/C=C1/CN2CCC34c5ccccc5N5C(OC)C67OC(C([C@H]53)[C@H]1C[C@H]24)N1c2ccccc2C2(CCN3C/C(=C/C)[C@@H]6C[C@H]32)[C@@H]17 | 3D7 |  |  | 0.827 µg/mL
C[C@@H]1CC[C@H]2[C@@H](C)C(=O)O[C@@H]3OC4(C)CC[C@@H]1[C@]32OO4 | K1 |  |  | 0.0021 µM
O=C(NCCOc1ccc2ccccc2c1)c1ccccc1Cl | Dd2 |  |  | 1.7 µM
C[n+]1c2ccccc2cc2[nH]c3ccccc3c21.O=S(=O)([O-])C(F)(F)F | K1 |  |  | 0.8 µM
COc1cc(/C=C2\CC/C(=C\c3ccc(OCCN(C)C)c(OC)c3)C2=O)ccc1OCCN(C)C | W2 |  |  | 1.53 µM
O[C@H](c1cc(C(F)(F)F)nc2c(C(F)(F)F)cccc12)[C@@H]1CCCCN1 | RSA11 |  |  | 0.008 µM
CCN(CC)CCCC(C)Nc1ccnc2cc(Cl)ccc12 | W2 |  |  | 0.43 µM
C/C=C1/CN2CCc3c([nH]c4ccccc34)C2C[C@@H]1C1=CN2c3ccccc3C34CCN5CC6=CCO[C@@H]1[C@@H]([C@H]23)[C@H]6C[C@H]54 | 3D7 |  |  | 0.388 µg/mL
C=CC1CN2CCC1CC2[C@H](O)c1ccnc2ccc(OC)cc12 | 3D7 |  |  | 0.11 µM
O=C(NCCOc1ccc2c(c1)CCCC2)c1ccccc1Cl | Dd2 |  |  | 2.5 µM
C[C@@H]1CC[C@H]2[C@@H](C)C(=O)O[C@@H]3OC4(C)CC[C@@H]1[C@]32OO4 | W2 |  | LDH / absorbance | 0.0034 µg/mL
COc1cc(/C=C2\CC/C(=C\c3ccc(OCCCn4ccnc4C)c(OC)c3)C2=O)ccc1OCCCn1ccnc1C | D6 |  |  | 4 µM
CCOC(=O)c1cn(CC(F)(F)F)c2ccc3nc(-c4ccc(F)cc4)c(-c4ccc(F)cc4)nc3c2c1=O | 3D7 |  | fluorescence | 3.92 µM
Cc1ccc(N=C2SCC(O)=C2C(=O)O)cc1C | Dd2 |  |  | >20 µM
O=C(CN1C(=O)SC(=Cc2ccc(OC(F)(F)F)cc2)C1=O)N1CCN(c2ccccc2)CC1 | W2 | Chloroquine-resistant | fluorescence | >10 µM
CCC(C)N1C(=O)C2C(C1=O)[C@H]1CC[C@@H]2O1 | W2 |  |  | 135 µM
CN1CCc2cc3c(cc2[C@@H]1[C@@H]1OC(=O)c2c1ccc1c2OCO1)OCO3 | K1CB1 |  |  | >20 µg/mL
CCOC(=O)C1=C(O)CSC1=Nc1ccc2ccccc2c1 | 3D7 |  |  | 0.079–0.75 µM
OCCCCNc1nc(NCCCCNc2ccnc3cc(Cl)ccc23)nc(N2CCOCC2)n1 | D6 |  |  | 0.09 µM
O=C1CSC(Nc2ccc3ccccc3c2)=C1CONCC1CC1 | Dd2 |  |  | >20 µM
O=C(CC1CCC2(CC1)OOC1(OO2)C2CC3CC(C2)CC1C3)NCCN1CCCC1 | K1 |  |  | 0.0009 µM
COc1cc2c(cc1O)[C@@H]1Cc3ccc4c(c3CN1CC2)OCO4 | TM4/8.2 |  |  | 0.9 µg/mL
OCCNc1nc(NCCCCNc2ccnc3cc(Cl)ccc23)nc(N2CCOCC2)n1 | D6 |  |  | 0.19 µM
CCN(CC)CCCC(C)Nc1ccnc2cc(Cl)ccc12 | D6 |  |  | 0.053 µM
Cc1cccc(OCCNC(=O)c2ccc(O)cc2Cl)c1 | Dd2 |  |  | 17.8 µM
O=c1c(O[C@@H]2O[C@H](CO)[C@H](O)[C@H](O)[C@H]2O)c(-c2ccc(O)c(O)c2)oc2cc(O)cc(O)c12 | Clinical isolates |  |  | 24.38 µM
CCN(CC)CCCC(C)Nc1ccnc2cc(Cl)ccc12 | D10 |  |  | 0.03 µM
CC1(C)N=C(N)N=C(N)N1c1ccc(Cl)cc1 | NF54 |  |  | 0.0045 µM
Cc1ccc(NC2=C(ON)C(=O)CS2)cc1C | 3D7 |  |  | >20 µM
CCNc1cc2sc3cc(=[NH+]CC)c(C)cc-3nc2cc1C |  |  |  | 0.00362 µM
CCc1nc(N)nc(N)c1-c1ccc(Cl)cc1 | Dd2 |  | LDH | 0.0151 µg/mL
O=C(NCCOc1ccccc1)c1ccccc1O | Dd2 |  |  | 13.4 µM
COc1cc(OC)c(C=C2SC(=O)N(CC(=O)N3CCN(c4ccccc4)CC3)C2=O)c(OC)c1 | W2 | Chloroquine-resistant | fluorescence | 0.88 µM
COc1cc(/C=C2\CC/C(=C\c3ccc(OCCn4ccnc4C)c(OC)c3)C2=O)ccc1OCCn1ccnc1C | W2 |  |  | 3.01 µM
OCCNc1nc(NCCNc2ccnc3cc(Cl)ccc23)nc(N2CCCCC2)n1 | D6 |  |  | 0.19 µM
CCc1nc(N)nc(N)c1-c1ccc(Cl)cc1 | NF54 |  |  | 0.017 µM
C=C[C@H]1CN2CC[C@H]1C[C@H]2[C@H](O)c1ccnc2ccccc12 | HB3 |  |  | 0.018 µM
O=C(O)c1cn(C2CC2)c2cc(N3CCNCC3)c(F)cc2c1=O | W2 |  | fluorescence | 23.1 µM
CN1CCC(N2CCN(C(=O)CC3CCC4(CC3)OOC3(OO4)C4CC5CC(C4)CC3C5)CC2)CC1 | 3D7 |  |  | 0.0015 µM

4 of the rows above, restated:

SMILES | strain | changes | read by | value
OCCCCNc1nc(NCCCCNc2ccnc3cc(Cl)ccc23)nc(N2CCOCC2)n1 | D6 |  |  | 0.09 µM
O=C(O)c1cn(C2CC2)c2cc(N3CCNCC3)c(F)cc2c1=O | W2 |  | fluorescence | 23.1 µM
COc1cc(/C=C2\CC/C(=C\c3ccc(OCCCn4ccnc4C)c(OC)c3)C2=O)ccc1OCCCn1ccnc1C | D6 |  |  | 4 µM
Cc1ccc(N=C2SCC(O)=C2C(=O)O)cc1C | Dd2 |  |  | >20 µM